Patent publication US20240115712A1, “SEMICARBAZONE-BASED SAPONIN CONJUGATE” (priority 2021, published 2024)

Tests used:
SK-BR-3 cells = assay: Targeted cell killing assay (MTS) with fixed toxin concentration; format: cell-based, human; conditions: equivalent concentrations, without CD71mab-saporin
CaSki cells = assay: as above; format: cell-based, human; conditions: equivalent concentrations, without CD71mab-saporin

Substance	cell killing activity of conjugate alone (SK-BR-3 cells)	cell killing activity of conjugate alone (CaSki cells)
Cetuximab-(EMCH-SO1861)^4: SO1861-EMCH conjugated to Cetuximab cysteines, hydrazone comparator	could not induce any significant cell killing activity	
Cetuximab-(SC-SO1861)^4: SO1861-SC-Mal conjugated via cysteine residues to Cetuximab, DAR 4	could not induce any significant cell killing activity	could not induce any cell killing activity
